Test results from patent US20110172200A1, “USE OF INHIBITOR OF BETA-LACTAMASES AND ITS COMBINATION WITH BETA-LACTAM ANTIBIOTICS” (priority 2008, published 2011).

Chains of the proteins cited; added tags and fusions are not shown. Residues count along the entry.
UniProt P0AD63, 22-286 limits assumed: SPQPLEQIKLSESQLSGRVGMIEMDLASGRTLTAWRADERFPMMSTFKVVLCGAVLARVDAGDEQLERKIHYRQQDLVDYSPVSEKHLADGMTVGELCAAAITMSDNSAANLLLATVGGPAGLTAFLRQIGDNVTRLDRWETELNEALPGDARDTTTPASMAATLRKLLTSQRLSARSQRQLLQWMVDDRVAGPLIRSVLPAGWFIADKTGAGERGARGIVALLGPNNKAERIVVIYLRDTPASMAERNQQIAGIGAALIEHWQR
UniProt P05364, 21-381 limits assumed: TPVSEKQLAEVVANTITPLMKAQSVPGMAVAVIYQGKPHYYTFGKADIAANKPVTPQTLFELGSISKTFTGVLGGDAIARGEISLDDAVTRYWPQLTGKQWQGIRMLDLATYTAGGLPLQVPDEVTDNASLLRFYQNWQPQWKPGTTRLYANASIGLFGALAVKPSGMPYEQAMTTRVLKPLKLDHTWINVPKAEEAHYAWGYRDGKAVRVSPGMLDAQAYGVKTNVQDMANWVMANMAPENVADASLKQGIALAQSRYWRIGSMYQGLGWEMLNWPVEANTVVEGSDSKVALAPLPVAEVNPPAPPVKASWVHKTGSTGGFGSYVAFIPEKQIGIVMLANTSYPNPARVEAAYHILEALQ
UniProt P62593, 24-286 limits assumed: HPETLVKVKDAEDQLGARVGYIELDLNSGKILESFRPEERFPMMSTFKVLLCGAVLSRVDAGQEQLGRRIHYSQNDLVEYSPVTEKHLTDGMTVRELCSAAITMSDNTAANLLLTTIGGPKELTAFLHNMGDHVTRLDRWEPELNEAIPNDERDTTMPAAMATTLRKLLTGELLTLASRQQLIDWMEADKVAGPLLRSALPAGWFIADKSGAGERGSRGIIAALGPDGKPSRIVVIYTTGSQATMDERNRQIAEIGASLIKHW

Assays:
[1] = biological target: class A beta-lactamase SHV-1 (Escherichia coli, UniProt P0AD63); assay: IC50 determination with nitrocefin as reporter substrate, SHV-1; format: biochemical, E. coli; details: read-out: IC50 SHV-1, 30 min pre-incubation at 37° C., phosphate buffer pH 7.0, nitrocefin
Protocol: (§1) The IC50 value represents the concentration of inhibitor required to effect a 50% loss of activity of free enzyme. A standard test for the production of beta-lactamase involves use of the chromogenic cephalosporin, nitrocefin.
(§2) Homogeneously purified class A beta-lactamases TEM-1 and SHV-1 from E. coli and class C enzyme P99 from Enterobacter cloaca were employed in the assay.
(§3) All the enzymes and compounds were dissolved in 50 mM phosphate buffer pH 7.0 and all further dilutions were done with the same buffer solution. Enzyme and compound dilutions were pre-incubated for 30 min at 37° C. and in a final volume of 500 μl. Than 10 μl of 5 mM nitrocefin (reporter substrate) was added to the solution and the absorbance at 482 nm was measured during 2 to 5 minutes. The initial rate was calculated for all the different solutions. The […] values were determined as the inhibitor concentration that gave an initial hydrolysis rate of nitrocefin equal to 50% of the hydrolysis rate of nitrocefin in absence of inhibitor.
(§4) Representative compounds of formula (I) were evaluated as inhibitors of beta-lactamases of TEM-1 and SHV-1 (class A, penicillinase) from E. coli and P-99 (class C, cephalosporinase) from Enterobacter cloacae, by relative IC50 analysis using a procedure similar to that described above.

[2] = biological target: class C beta-lactamase P99 (AmpC) (Enterobacter cloacae, UniProt P05364); assay: IC50 determination with nitrocefin as reporter substrate, P99; format: biochemical; details: read-out: IC50 P99 (AmpC), 30 min pre-incubation at 37° C., phosphate buffer pH 7.0, nitrocefin
Protocol: as §1, §2, §3, §4

[3] = biological target: class A beta-lactamase TEM-1 (Escherichia coli, UniProt P62593); assay: IC50 determination with nitrocefin as reporter substrate, TEM-1; details: read-out: IC50 TEM-1, 30 min pre-incubation at 37° C., phosphate buffer pH 7.0, nitrocefin

Row | SMILES | IC50 ([1]; tested form: sodium salt) [µM] | IC50 ([2]; tested form: sodium salt) [µM] | IC50 ([3]; tested form: sodium salt) [µM] | IC50 ([1]; tested form: Na salt) [µM] | IC50 ([2]; tested form: Na salt) [µM] | IC50 ([3]; tested form: Na salt) [µM]
1 | C[C@@H](O)[C@H]1C(=O)N2C(C(=O)O)=C3C(OCCF)CCC[C@@H]3[C@H]12 (stereo partly drawn) | 223 | 0.149 | 7.4 | – | – | –
2 | CCOC1CCCC2C1=C(C(=O)O)N1C(=O)C(C(C)O)C21 (stereo not drawn) | – | – | – | 2830 | 0.251 | 785

Read-outs that look alike come from different tables or passages of the source.
